Literature values, collected in PubChem BioAssay AID1811.

Tests used:
Test in all cases: PubChem AID 1811
Details in all cases: PDB complex binding affinities from literature; Ki when reported
HIV-1 protease I84V = biological target: HIV-1 protease I84V
HIV-1 protease V82F = biological target: HIV-1 protease V82F
HIV-1 protease v82f i84v = biological target: HIV-1 protease v82f i84v

In the case of `O=C1N(Cc2ccc(CO)cc2)[C@H](Cc2ccccc2)[C@H](O)[C@@H](O)[C@@H](Cc2ccccc2)N1Cc1ccc(CO)cc1`, the Ki (HIV-1 protease I84V) is listed as 20 nM, the Ki (HIV-1 protease V82F) is listed as 0.4 nM and the Ki (HIV-1 protease v82f i84v) is listed as 800 nM.
